Experimental data taken from PMC3048469 (FEBS letters, 2011).

Test system: C=C(C)CCO[P@@](=O)(O)OP(=O)(O)O
Assay: purified protein
Conditions: pH 7.0; 37.0 °C

Substance: Rv0989c (Mycobacterium tuberculosis H37Rv)
- Km: 163 µM

Substance: Rv3398c (Mycobacterium tuberculosis CDC1551)
- Km: 2.6 ± 0.4 µM
